Data reported in publication PMC5440694 (Nature Communications, 2017).
Like-named read-outs stand apart in the source and are kept apart here.

Key:
[1] = molecular target: biotinylated HA0 ectodomain of A/Japan/305/1957 (H2N2) (Influenza A virus A/Japan/305/1957 …, UniProt P03451, biotin on the BirA biotinylation site)
[2] = molecular target: biotinylated HA0 ectodomain of A/Hong Kong/1/1968 (H3N2) (Influenza A virus A/Hong Kong/1/1968 …, UniProt Q91MA7, biotin on the BirA biotinylation site); details: both partners purified
[3] = molecular target: biotinylated HA0 ectodomain of A/WSN/1933 (H1N1) (Influenza A virus A/WSN/1933 (H1N1), UniProt I4EPC4, biotin on the BirA biotinylation site); assay: BLI; details: both partners purified
[4] = molecular target: HA1 (H3 numbering: residues 43-309) from A/Hong Kong/1/1968 (HK68/H3) (Influenza A virus A/Hong Kong/1/1968 …, strain); assay: crystal structure

Binder | Kd ([1]; both partners purified) | Kd [2] | Kd [3] | Kd [1] | binding result [4]
wild-type C05 Fab (VVSAGW), expressed in insect cells (Fab, V domains shown) VH: QVQLQESGGGLVQPGESLRLSCVGSGSSFGESTLSYYAVSWVRQAPGKGLEWLSIINAGGGDIDYADSVEGRFTISRDNSKETLYLQMTNLRVEDTGVYYCAKHMSMQQVVSAGWERADLVGDAFDVWGQGTMVTVSS VL: DIQLTQSPSSLSASVGDRVTLTCQASQDIRKFLNWYQQKPGKGPKLLIYDASNLQRGVPSRFSGGGSGTDFTLIISSLQPEDVGTYYCQQYDGLPFTFGGGTKVVIK | 1.7 ± 0.046 µM | 0.328 ± 0.012 µM | 0.1694 ± 0.001 µM | – | –
C05 Fab variant VVSSGW, expressed in insect cells (Fab, V domains shown) VH: QVQLQESGGGLVQPGESLRLSCVGSGSSFGESTLSYYAVSWVRQAPGKGLEWLSIINAGGGDIDYADSVEGRFTISRDNSKETLYLQMTNLRVEDTGVYYCAKHMSMQQVVSSGWERADLVGDAFDVWGQGTMVTVSS VL: DIQLTQSPSSLSASVGDRVTLTCQASQDIRKFLNWYQQKPGKGPKLLIYDASNLQRGVPSRFSGGGSGTDFTLIISSLQPEDVGTYYCQQYDGLPFTFGGGTKVVIK | – | – | 0.728 ± 0.0205 µM | > 5 µM | –
C05 Fab variant VTGSGW, expressed in insect cells (Fab, V domains shown) VH: QVQLQESGGGLVQPGESLRLSCVGSGSSFGESTLSYYAVSWVRQAPGKGLEWLSIINAGGGDIDYADSVEGRFTISRDNSKETLYLQMTNLRVEDTGVYYCAKHMSMQQVTGSGWERADLVGDAFDVWGQGTMVTVSS VL: DIQLTQSPSSLSASVGDRVTLTCQASQDIRKFLNWYQQKPGKGPKLLIYDASNLQRGVPSRFSGGGSGTDFTLIISSLQPEDVGTYYCQQYDGLPFTFGGGTKVVIK | – | – | 1.54 ± 0.042 µM | > 5 µM | –
C05 Fab variant VPGSGW, expressed in insect cells (Fab, V domains shown) VH: QVQLQESGGGLVQPGESLRLSCVGSGSSFGESTLSYYAVSWVRQAPGKGLEWLSIINAGGGDIDYADSVEGRFTISRDNSKETLYLQMTNLRVEDTGVYYCAKHMSMQQVPGSGWERADLVGDAFDVWGQGTMVTVSS VL: DIQLTQSPSSLSASVGDRVTLTCQASQDIRKFLNWYQQKPGKGPKLLIYDASNLQRGVPSRFSGGGSGTDFTLIISSLQPEDVGTYYCQQYDGLPFTFGGGTKVVIK | – | – | – | – | binds
